Compound potency records, mixed from different reports. Data source: NIAID ChemDB in PubChem.

Shared fields: tests on isolated targets; species: HIV-1; target: Reverse transcriptase; measure: IC50

Lines come from different laboratories, so protocols vary. An empty or dashed field is not shown. ICn: concentration for n% inhibition.

SMILES	strain or isolate	changes	read by	value
O=C(O)C1=C[C@@H](OC(=O)c2cc(O)c(O)c(O)c2)[C@@H](O)[C@H](OC(=O)c2cc(O)c(O)c(O)c2)C1			nucleotide incorporation	0.52 µM
O=C1CC2OC(O)C3OC(=O)c4cc(O)c(O)c(O)c4-c4c(cc(O)c(O)c4O)C(=O)OC3C2OC(=O)c2cc(O)c(O)c(O)c2-c2c1cc(O)c(O)c2O			nucleotide incorporation	>20 µg/mL
CCc1c([Se]c2ccccc2)n(COCc2ccccc2)c(=O)[nH]c1=O	RT-WT		RT activity	0.1 µM
Nc1nc(Cl)c2ncn([C@H]3C=C[C@@H](COP([O-])(=S)OP(=O)(O)C(F)(F)P(=O)(O)O)C3)c2n1			fluorescence	>10 µM
CCc1c(Sc2ccccn2)n(COCc2ccccc2)c(=O)[nH]c1=O	RT-WT		RT activity	0.07 µM
Cc1c(Cc2c(F)cccc2F)nc(Sc2ccc(Cl)cc2)[nH]c1=O		RT-K103N		>400 µM
CCCN(C)C(=O)Oc1nsnc1-c1c(Cl)cccc1Cl	IIIB-R (RT-Y181C)	RT-Y181C	nucleotide incorporation	111 µM
Cc1cn([C@H]2C[C@H](N)[C@@H](COP([O-])(=S)OP(=O)(O)C(F)(F)P(=O)(O)O)O2)c(=O)[nH]c1=O			fluorescence	>0.5 µM
CCN1c2ncc(CNc3ccccc3)cc2C(=O)N(C)c2ccc(Cl)nc21	WT		nucleotide incorporation / radiometric	<1 µM
COc1ccc(Sc2nc(Cc3c(F)cccc3F)c(C)c(=O)[nH]2)cc1		Y181I		>400 µM
CCn1cnc2ncn([C@@H]3O[C@H](CO[Si](C)(C)C(C)(C)C)C4(OS(=O)(=O)C=C4N)[C@H]3O[Si](C)(C)C(C)(C)C)c2c1=O			ELISA	<16 µM
COc1cc([C@@H]2c3cc4c(cc3[C@@H](O[C@@H]3O[C@@H]5CO[C@@H](C)O[C@H]5[C@H](O)[C@H]3O)[C@H]3COC(=O)[C@H]23)OCO4)cc(OC)c1O				>100 µM
CCCCN(C)C(=O)Oc1nsnc1-c1c(Cl)cccc1Cl	IIIB-R (RT-Y181C)	RT-Y181C	nucleotide incorporation	155 µM
O=C1OCC2OC(=O)c3cc(O)c(O)c(O)c3-c3c(O)c(O)c(O)c4c3C(=O)OC(C2OC(=O)c2cc(O)c(O)c(O)c2-c2c1cc(O)c(O)c2O)C1OC(=O)c2c-4c(O)c(O)c(O)c2C1c1c(O)cc(O)c2c1O[C@H](c1ccc(O)c(O)c1)C(O)C2			nucleotide incorporation	>20 µg/mL
C#C[C@]1(COP(=O)(O)OP(=O)(O)OP(=O)(O)O)O[C@@H](n2cc(F)c3c(N)nc(Cl)nc32)C[C@@H]1O			RT activity / nucleotide incorporation / luminescence	0.49 µM
CCOC(=O)c1cn(Cc2ccncc2)c(Sc2cc(Cl)cc(Cl)c2)c1C1CCCCC1			nucleotide incorporation / radiometric	0.61 µM
COc1cc(C(=O)Oc2c(-c3ccc(Cl)cc3)oc3ccccc3c2=O)cc(OC)c1O				>100 µM
Nc1cccc2c1ccn2[C@H]1CC[C@@H](COP(=O)(O)OP(=O)(O)OP(=O)(O)O)O1			RT activity	23.7 µM
CCCCNC(=O)Oc1nsnc1-c1c(Cl)cccc1Cl	IIIB		nucleotide incorporation	>200 µM
Cc1cn([C@H]2CC[C@@H](COP([O-])(=S)OP(=O)(O)C(F)(F)P(=O)(O)O)O2)c(=O)[nH]c1=O			fluorescence	>0.5 µM
Cc1c(Sc2ccccc2)n(COCCO)c(=O)[nH]c1=O		RT-L100I		>5 µM
C#C[C@@]1(CO)C=C[C@H](n2cc(C)c(=O)[nH]c2=O)O1			radiometric	0.2 µM
CCCCCCN(C)C(=O)Oc1nsnc1-c1c(Cl)cccc1Cl	IIIB-R (RT-Y181C)	RT-Y181C	nucleotide incorporation	>200 µM
Cc1c(Cc2c(F)cccc2F)nc(Sc2ccccc2)[nH]c1=O		RT-K103N		>400 µM
NC(=O)OCc1cn(Cc2ccncc2)c(Sc2cc(Cl)cc(Cl)c2)c1C1CCCCC1			nucleotide incorporation / radiometric	0.34 µM
O=C(OCC1O[C@@H](O)C(O)(COC(=O)c2cc(O)c(O)c(O)c2)C1O)c1cc(O)c(O)c(O)c1			nucleotide incorporation	>20 µg/mL
Cc1csc(NC(=S)N[C@H](C)c2ccccc2)n1			nucleotide incorporation / radiometric	0.8 µM
O=[N+]([O-])c1ccnc2c1ccn2[C@H]1CC[C@@H](COP(=O)(O)OP(=O)(O)OP(=O)(O)O)O1			RT activity	>1000 µM
COc1ccc(Sc2nc(Cc3c(Cl)cccc3Cl)c(C)c(=O)[nH]2)cc1		RT-K103N		>400 µM
OCc1cn(Cc2ccncc2)c(Sc2cc(Cl)cc(Cl)c2)c1C1CCC1			nucleotide incorporation / radiometric	0.08 µM
O=C(/C=C/c1ccc(O)c(O)c1)Oc1c(-c2ccc(Cl)c(Cl)c2)oc2ccccc2c1=O				80 µM
NC(=O)OCc1cn(Cc2ccncc2)c(Sc2cc(Cl)cc(Cl)c2)c1C1CC1			nucleotide incorporation / radiometric	0.55 µM
O=C(OC1COc2ccccc2C1)c1cc(O)c(O)c(O)c1				>100 µM
O=C(O[C@@H]1OC2CC(=O)c3cc(O)c(O)c(O)c3-c3c(cc(O)c(O)c3O)C(=O)OC2C2OC(=O)c3cc(O)c(O)c(O)c3-c3c(cc(O)c(O)c3O)C(=O)OC21)c1cc(O)c(O)c(O)c1			nucleotide incorporation	>20 µg/mL
CCN1c2ncc(CSc3ccncc3)cc2C(=O)N(C)c2ccc(Cl)nc21		RT-Y181C	nucleotide incorporation / radiometric	<1 µM
CCc1c([Se]c2ccccn2)n(COCc2ccccc2)c(=O)[nH]c1=O	RT-WT		RT activity	0.2 µM
CCN1c2ncccc2NC(=O)c2cc(CCc3ccccc3)cnc21		RT-Y181C	nucleotide incorporation / radiometric	>1 µM
Cc1cn([C@H]2C[C@H](N=[N+]=[N-])[C@@H](COP(=O)(O)O)O2)c(=O)[nH]c1=O	IIIB		nucleotide incorporation	>1000 µM
CCN1c2ncc(CCc3ccccc3)cc2C(=O)N(C)c2cccnc21		RT-Y181C	nucleotide incorporation / radiometric	<1 µM
COc1cc2c(c(OC)c1OC)-c1c(cc3c(c1OC)OCO3)C[C@H](C)[C@H](C)C2		Y181C	nucleotide incorporation	55 µM
Cc1c(Sc2ccccc2)n(COCCO)c(=O)[nH]c1=O			nucleotide incorporation	53 µM
O=c1c(O)c(-c2ccc(Cl)cc2)oc2ccccc12				>100 µM
CCN1c2ncc(C=O)cc2C(=O)N(C)c2ccc(F)nc21	WT		nucleotide incorporation / radiometric	~1 µM
CC(=O)Oc1c(-c2ccc(Cl)c(Cl)c2)oc2ccccc2c1=O				>100 µM
O=C(O)C1=C[C@@H](O)[C@@H](OC(=O)c2cc(O)c(O)c(O)c2)[C@H](OC(=O)c2cc(O)c(O)c(O)c2)C1			nucleotide incorporation	1.77 µM
CCN1c2ncc(CCc3ccccc3)cc2C(=O)N(C)c2ccc(Cl)nc21	WT		nucleotide incorporation / radiometric	<1 µM
O=C(/C=C/c1ccc(O)c(O)c1)O[C@@H]1CC(O)(C(=O)O)C[C@@H](OC(=O)/C=C/c2ccc(O)c(O)c2)C1O			nucleotide incorporation	1.16 µM
COc1cc2c(c(OC)c1OC)-c1c(cc(OC)c(OC)c1OC)C[C@H](C)[C@H](C)C2			nucleotide incorporation	34.5 µM
CCN1c2ncc(OCc3ccccc3)cc2C(=O)N(C)c2ccc(Cl)nc21		RT-Y181C	nucleotide incorporation / radiometric	>1 µM
CNc1ccc(Cl)cc1S(=O)(=O)c1ccccc1[N+](=O)[O-]		RT-Y188L		>100 µM
Cc1cn([C@H]2C[C@H](N=[N+]=[N-])[C@@H](COP(=S)([S-])OP(=O)(O)C(F)(F)P(=O)(O)O)O2)c(=O)[nH]c1=O			fluorescence	>0.5 µM
Cc1c(Cc2c(Cl)cccc2Cl)nc(Sc2ccccc2)[nH]c1=O		Y181I		>400 µM
Nc1ccn([C@@H]2CS[C@H](COP([O-])(=S)OP(=O)(O)C(F)(F)P(=O)(O)O)O2)c(=O)n1			fluorescence	>10 µM
NC(=O)OCc1cn(Cc2ccncc2)c(Sc2cc(Cl)cc(Cl)c2)c1C1CCC1		RT-Y181I	nucleotide incorporation / radiometric	150 µM
O=C1OCC2OC(=O)c3cc(O)c(O)c(O)c3-c3c(O)c(O)c(O)c4c3C(=O)OC(C2OC(=O)c2cc(O)c(O)c(O)c2-c2c1cc(O)c(O)c2O)C1OC(=O)c2c-4c(O)c(O)c(O)c2[C@@H]1O			nucleotide incorporation	>20 µg/mL
O=C(O[C@@H]1[C@H](O)C[C@@](O)(C(=O)O)C[C@H]1OC(=O)c1cc(O)c(O)c(O)c1)c1cc(O)c(O)c(O)c1			nucleotide incorporation	7.81 µM
Cc1cn([C@H]2C[C@H](N=[N+]=[N-])[C@@H](COP(=O)(O)CP(=O)(O)O)O2)c(=O)[nH]c1=O	IIIB		nucleotide incorporation	14 µM